Measured values taken from article PMC7555893, “Structural role of essential light chains in the apicomplexan glideosome” (Communications Biology, 2020).

Assays:
Assay in all cases: ITC; 200 uM protein (syringe) injected 19 x 2 uL into 20 uM pre-formed complex of light chain and MyoA peptide (cell, 1:1.1); 20 mM HEPES pH 7.5, 150 mM NaCl, 0.5 mM TCEP with 1 mM CaCl2; 25 °C; one-site model
[1] = biological target: Pre-complex of TgELC2 with TgMyoA-C (T. gondii) (UniProt O00934)
[2] = biological target: Pre-complex of TgELC2 E22A with TgMyoA-C (T. gondii) (UniProt O00934)
[3] = biological target: Pre-complex of TgELC2 R17A with TgMyoA-C (T. gondii) (UniProt O00934)

| Substance | Kd [1] | dH [1] | stoichiometry N [1] | Kd [2] | dH [2] | stoichiometry N [2] | stoichiometry N [3] |
| --- | --- | --- | --- | --- | --- | --- | --- |
| MLC1-S N172A (domain or fragment) | 4.3 nM | -41.6 kcal/mol | 0.84 |  |  |  |  |
| T. gondii myosin light chain 1, short construct (MLC1-S) (domain or fragment) |  |  |  | 5.2 nM | -45.9 kcal/mol | 0.92 | 0.92 |
